Data on one sequence can be found in paper PMC5352318, “Carcinoma-risk variant of EBNA1 deregulates Epstein-Barr Virus episomal latency”.

The target in this data set is T1, B95-8 EBNA1 DBD (Epstein-Barr virus (strain B95-8)) (UniProt P03211).
T1 sequence (looked up): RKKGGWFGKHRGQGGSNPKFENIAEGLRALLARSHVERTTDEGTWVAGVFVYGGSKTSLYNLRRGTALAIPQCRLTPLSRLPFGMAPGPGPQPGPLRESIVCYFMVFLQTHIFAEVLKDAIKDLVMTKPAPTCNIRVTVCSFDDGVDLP
The experiment in a line: X-ray crystal structure. The conditions noted are these: DNA sequence in Methods is given for the NPC crystal only; Crystals: 0.2 M ammonium acetate, 0.15 M Mg acetate, 0.05 M Hepes pH 7.0, 5% PEG 4000; recombinant protein; residues 459-607; protein details: His6-SUMO tag, cleaved.

The exact form of at least one protein or probe is not confirmed. At least one verdict was read from the data and is not stated in words by the source. Tags and fusion partners may be left off the protein sequences shown.

In the case of “GGATAGCCTATGCTACCC (double strand) [single EBNA1 dimer site (crystal)]”, the binding result is “binds”.
